PubChem BioAssay AID624099 – ICCB-Longwood | 2012

Aim: 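Knock-downs relieving repression by E2 of an HPV18 LCR luciferase reporter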 (primary screen)
Cells: human C33A cervical carcinoma cells (HPV-negative) stably expressing BPV1 E2 and an HPV18 LCR luciferase reporter
Reagent: siRNA pool against human genes, 40 nM
Duration: 72 h
Measurement: 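Per-well luciferase luminescence, z-scored on each plate against the plate mean and SD with control wells left out, then averaged across three replicate plates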
Scale: mean z-score and z-score: higher = stronger reporter signal, weaker E2 silencing
Rule for the call: 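Hit if mean z-score reaches 2 and two or more of three replicate z-scores also reach 2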
In all, the deposit lists about 21,000 reagents; shown is an unselected part. Of all reagents, 497 (2.4%) are marked active. 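Higher z means weaker E2 silencing; only reporter increases were scored, and knock-downs that hurt cell survival may mask genuine repressor factors.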

gene knocked down | mean z-score | z-score, replicate A | z-score, replicate B | z-score, replicate C | activity call
ADAM3B (ADAM metallopeptidase domain 3B (pseudogene)) | 0.51 | 0.22 | 0.57 | 0.74 | inactive
AGTR2 (angiotensin II receptor type 2) | 1.22 | 0.92 | 1.49 | 1.26 | inactive
RPL39 (ribosomal protein L39) | -0.59 | -0.64 | -0.64 | -0.5 | inactive
ADAMTS8 (ADAM metallopeptidase with thrombospondin type 1 motif 8) | 0.47 | 0.97 | 0.12 | 0.33 | inactive
FLJ44896 (retired record) | 0.3 | 0.52 | 0.19 | 0.2 | inactive
LOC389204 (retired record) | -0.77 | -0.68 | -0.86 | -0.77 | inactive
SLC6A18 | -0.66 | -0.56 | -0.81 | -0.62 | inactive
PXDN (peroxidasin) | -0.32 | -0.38 | -0.31 | -0.28 | inactive
BPTF (bromodomain PHD finger transcription factor) | -0.35 | 0.24 | -0.68 | -0.61 | inactive
LOC387922 (retired record) | -0.33 | -0.39 | -0.51 | -0.08 | inactive
CCR10 (C-C motif chemokine receptor 10) | 2.05 | 2.04 | 2.21 | 1.9 | active
ATP5MG (ATP synthase membrane subunit g) | -0.74 | -0.75 | -0.77 | -0.7 | inactive
LOC402538 (retired record) | 1.41 | 1.1 | 1.32 | 1.81 | inactive
CT55 (cancer/testis antigen 55) | 0.3 | 0.54 | 0.34 | 0.02 | inactive
ZFYVE9 (zinc finger FYVE-type containing 9) | 0.71 | 0.66 | 0.97 | 0.49 | inactive
ANKRD55 (ankyrin repeat domain 55) | -0.16 | -0.44 | -0.28 | 0.23 | inactive
KDM5D (lysine demethylase 5D) | -1.42 | -1.45 | -1.2 | -1.61 | inactive
MAGEA5P (MAGE family member A5, pseudogene) | -1.67 | -1.64 | -1.75 | -1.61 | inactive
TAFA4 (TAFA chemokine like family member 4) | 0.5 | 0.2 | 0.13 | 1.16 | inactive
EPS8L2 (EPS8 signaling adaptor L2) | 0.18 | -0.09 | 0.26 | 0.38 | inactive
SMOX (spermine oxidase) | 1.39 | 1.13 | 1.54 | 1.52 | inactive
M1AP (meiosis 1 associated protein) | 1.21 | 1.01 | 1.75 | 0.87 | inactive
ANXA5 (annexin A5) | 0.09 | -0.07 | 0.49 | -0.15 | inactive
LOC387777 (retired record) | 0.17 | 0 | 0.23 | 0.27 | inactive
LOC389660 (retired record) | -0.21 | -0.72 | 0.17 | -0.07 | inactive
ASRGL1 (asparaginase and isoaspartyl peptidase 1) | -0.49 | -0.19 | -1.13 | -0.14 | inactive
AQP7P3 (aquaporin 7 pseudogene 3) | -0.3 | -0.06 | -0.62 | -0.22 | inactive
HIRIP3 (HIRA interacting protein 3) | 0.1 | -0.18 | 0.28 | 0.21 | inactive
CDCA4 (cell division cycle associated 4) | -0.82 | -0.85 | -0.76 | -0.84 | inactive
PDLIM3 (PDZ and LIM domain 3) | 0.13 | -0.28 | 0.13 | 0.56 | inactive
NPIPB11 (nuclear pore complex interacting protein family member B11) | -0.58 | -0.44 | -0.83 | -0.48 | inactive
PCSK4 (proprotein convertase subtilisin/kexin type 4) | -0.34 | -0.6 | -0.45 | 0.04 | inactive
AMER3 (APC membrane recruitment protein 3) | -0.11 | 0 | -0.17 | -0.16 | inactive
CTBS (chitobiase) | 2 | 1.61 | 2.17 | 2.21 | inactive
BARX1 (BARX homeobox 1) | -0.15 | -0.34 | -0.35 | 0.24 | inactive
MLN (motilin) | 1.84 | 1.62 | 1.76 | 2.15 | inactive
MLXIP (MLX interacting protein) | -0.01 | -0.27 | 0.17 | 0.06 | inactive
PPM1M (protein phosphatase, Mg2+/Mn2+ dependent 1M) | 0.84 | 0.46 | 1.39 | 0.68 | inactive
QRFP (pyroglutamylated RFamide peptide) | 0.32 | 0.85 | 0.07 | 0.05 | inactive
SCAF1 (SR-related CTD associated factor 1) | 0.9 | 0.87 | 0.45 | 1.38 | inactive
ZC3H10 (zinc finger CCCH-type containing 10) | 0.31 | 0.38 | 0.22 | 0.33 | inactive
SPRED1 (sprouty related EVH1 domain containing 1) | 0.03 | -0.1 | 0.1 | 0.1 | inactive
STGC3 (retired record) | -1.74 | -1.8 | -1.76 | -1.66 | inactive
PHF6 (PHD finger protein 6) | 2.42 | 2.4 | 2.5 | 2.35 | active
ZP4 (zona pellucida glycoprotein 4) | -0.38 | -0.3 | -0.36 | -0.48 | inactive
GGNBP2 (gametogenetin binding protein 2) | -0.32 | -0.12 | -0.22 | -0.64 | inactive
SALL3 (spalt like transcription factor 3) | 1.01 | 1.47 | 0.91 | 0.66 | inactive
UBTFL3 (UBTF like 3 (pseudogene)) | -0.78 | -0.8 | -0.81 | -0.74 | inactive
TRAK1 (trafficking kinesin protein 1) | -0.82 | -1 | -0.57 | -0.9 | inactive
TTI2 (TELO2 interacting protein 2) | -0.24 | -0.3 | -0.12 | -0.29 | inactive
RGS3 (regulator of G protein signaling 3) | 0.21 | 0.03 | 0.16 | 0.43 | inactive
SETD7 (SET domain containing 7, histone lysine methyltransferase) | -0.45 | -0.42 | -0.74 | -0.18 | inactive
LOC139116 (retired record) | 0.06 | -0.14 | 0.15 | 0.17 | inactive
CCDC24 (coiled-coil domain containing 24) | 0.63 | -0.22 | 0.93 | 1.2 | inactive
PRPH (peripherin) | 1.53 | 1.57 | 1.56 | 1.46 | inactive
STAT3 (signal transducer and activator of transcription 3) | -0.75 | -0.69 | -0.93 | -0.64 | inactive
LINC00466 (long independently transcribed non-coding RNA 466) | -0.24 | 0.28 | -0.94 | -0.08 | inactive
MAN1B1 (mannosidase alpha class 1B member 1) | -1.21 | -1.1 | -1.34 | -1.2 | inactive
SEPTIN1 (septin 1) | 0.24 | 0.01 | 0.54 | 0.16 | inactive
DDX49 (DEAD-box helicase 49) | -1.51 | -1.67 | -1.6 | -1.25 | inactive
CDC42BPG (CDC42 binding protein kinase gamma) | -0.19 | 0.33 | -0.2 | -0.7 | inactive
KCNK10 (potassium two pore domain channel subfamily K member 10) | -0.55 | -0.61 | -0.41 | -0.62 | inactive
SMARCC1 (SWI/SNF related BAF chromatin remodeling complex subunit C1) | 0.57 | 0.63 | 0.61 | 0.47 | inactive
ARSA (arylsulfatase A) | 0.91 | 0.65 | 1.32 | 0.76 | inactive
DDO (D-aspartate oxidase) | 1.69 | 1.73 | 1.87 | 1.45 | inactive
LOC400614 (retired record) | 0 | -0.12 | 0.28 | -0.16 | inactive
SUB1 (SUB1 regulator of transcription) | -1.95 | -1.83 | -1.9 | -2.13 | inactive
TNMD (tenomodulin) | -0.28 | -0.64 | -0.16 | -0.04 | inactive
SLC15A1 | -0.25 | -0.1 | -0.27 | -0.39 | inactive
DDHD2 (DDHD domain containing 2) | 0.98 | 0.96 | 0.9 | 1.09 | inactive
OR10H5 (olfactory receptor family 10 subfamily H member 5) | -0.15 | -0.23 | 0 | -0.22 | inactive
RPL7P47 (ribosomal protein L7 pseudogene 47) | -0.22 | 0.01 | 0.05 | -0.71 | inactive
MAGEB10 (MAGE family member B10) | -0.35 | -0.39 | -0.3 | -0.37 | inactive

Taken from above.
Under “z-score, replicate B”, LOC402538 (retired record) is entered as 1.32
Value for UBTFL3 (UBTF like 3 (pseudogene)) in “z-score, replicate B”: -0.81
NPIPB11 (nuclear pore complex interacting protein family member B11), activity call = inactive
Value for ANXA5 (annexin A5) under “z-score, replicate A”: -0.07
TTI2 (TELO2 interacting protein 2), z-score, replicate B = -0.12
Value of RGS3 (regulator of G protein signaling 3) under “z-score, replicate C”: 0.43
